Results of unrelated studies side by side (data: NIAID ChemDB).

All rows: enzyme or target tests; organism: HIV-1; target: Reverse transcriptase; endpoint: inhibition

Rows are shuffled and stem from different studies. Inhibition is in % at the dose shown (toxicity tests: loss of growth or viability). An empty or dashed field is not shown.

smiles | strain or isolate | method | tested at | value
CCCN1C(=O)c2cc(Cl)nnc2N(CCC)c2ccc(C)cc21 | - | - | 33 µM | 6%
CN1CCN(c2nc3c(cc2F)c(=O)c(C(=O)O)cn3-c2cccc3ccccc23)CC1 | - | ELISA | 1 µg/mL | 27%
CCCCCCCCCCCC(=O)OCCCC[C@H]1CCCCCC[C@@H](C)NC(N)=[NH+]1 | - | RT activity / radiometric | 40 µM | 36.1%
CC1CN(c2cc3c(cc2F)c(=O)c(C(=O)O)cn3-c2ccc3ccccc3c2)CCN1.CS(=O)(=O)O | - | ELISA | 1 µg/mL | 69%
CCN1c2ncccc2-c2cscc2-c2ccc(-c3cn[nH]c3)nc21 | - | nucleotide incorporation | 1 µM | 68%
CC(CCCCC[C@H]1CCCCCC[C@@H](C)NC(N)=[NH+]1)O[Si](c1ccccc1)(c1ccccc1)C(C)(C)C.F[B-](F)(F)F | - | RT activity / radiometric | 10 µM | 47.9%
O=C1C2=C(SCCS2)C(=O)N1CCCCN1CCN(c2ccccn2)CC1 | - | RT activity | 200 µg/mL | 82.2%
C/C1=C\C=C\C2(C)C=C(CO)C(C)CC23OC([O-])C(C3=O)C(O)/C=C/C2(C)C=C(C=O)C(C)CC23OC([O-])C(C3=O)C(O)/C(C)=C/C=C/C2C=C(CO)C(C)CC23OC([O-])C(C3=O)C(O)/C=C/C2(C)C=C(C=O)C(C)CC23OC([O-])C(C3=O)C1O | IIIB | RT activity | 0.032 µg/mL | 29.3%
O=C1NC(c2c[nH]c3ccccc23)=C/C1=C1\C(=O)NC2C=CC=CC12 | - | RT activity / ELISA | 500 µM | 12.78%
CCCCN1C(=O)c2ccnnc2N(C2CC2)c2ccccc21 | - | - | 330 µM | 28%
CC1(C)CCC[C@]2(C)[C@H]3C[C@@H](C4=CCOC4=O)CC3=CC[C@@H]12 | - | RT activity / fluorescence | 200 µg/mL | 34.6%
CN1CCN(c2cc3c(cc2F)c(=O)c(C(=O)O)cn3-c2cccc3ccccc23)CC1.CS(=O)(=O)O | - | ELISA | 1 µg/mL | 60%
Cc1cccc(C)c1OCC(=O)N[C@@H](Cc1ccccc1)[C@H](O)[C@@H](O)[C@@H]1CCCN1C(=O)COc1c(C)cccc1C | - | - | 0.00000001 µM | 71%
CCN1c2ncccc2-c2cscc2-c2ccc(Cl)nc21 | - | nucleotide incorporation | 1 µM | 97%
CC1=C(CC/C(C)=C/CC/C(C)=C/CCC2=CCOC2=O)C(C)(C)CCC1=O | - | - | 1000 µg/mL | 81%
O=C1C2=C(SCCS2)C(=O)N1CCCCN1CCN(Cc2ccccc2)CC1 | - | RT activity | 200 µg/mL | 82.2%
COC(=O)/C(C)=C\C=C\[C@H](C)[C@H](OC(C)=O)[C@@H](C)[C@@H](OC(C)=O)[C@@H](C)[C@H](OC(C)=O)[C@H](C)[C@H](/C=C/O[C@@]1(C)Oc2c(C)c(O)c3c(c2C1=O)C(=O)C=C(N)C3=O)OC | - | ELISA | 300 µM | <20%
COC(=O)/C(=C/c1cccc(OC)c1OCc1ccccc1)CNCc1cn([C@H]2C[C@H](n3cc(C)c(=O)[nH]c3=O)O[C@@H]2CO)nn1 | - | - | 10 µM | 4.3%
CCCCCCCC(=O)OCCCC[C@H]1CCCCCC[C@@H](C)NC(N)=[NH+]1 | - | RT activity / radiometric | 40 µM | 12.1%
Cc1c(Cc2ccccc2)nc(SCc2ccccc2)[nH]c1=O | - | ELISA | 100 µM | 0%
CC(=O)NC1[C@H](COC[C@@H]2C(CO)O[C@@H](COC[C@@H]3C(CO)O[C@@H](O)C(NC(C)=O)[C@@H]3O)C(NC(C)=O)[C@@H]2O)OC(CO)[C@@H](O)[C@H]1O | - | RT activity | 50 µg/mL | 2%
CS(=O)(=O)O.O=C(O)c1cn(-c2ccc3ccccc3c2)c2nc(N3CCNCC3)c(F)cc2c1=O | - | ELISA | 1 µg/mL | 50%
CCCCOC(=O)C(CNCc1cn([C@H]2C[C@H](n3cc(C)c(=O)[nH]c3=O)O[C@@H]2CO)nn1)C(O)c1cc(Br)ccc1O | - | - | 10 µM | 26.3%
O=c1cc(Cc2ccccc2)nc(SCc2ccccc2)[nH]1 | - | ELISA | 100 µM | 0%
CS(=O)(=O)O.O=C(O)c1cn(-c2ccc3ccccc3c2)c2cc(N3CCNCC3)c(F)cc2c1=O | - | ELISA | 1 µg/mL | 58%
Cc1ccc2c(c1)N(C)C(=O)c1ccnnc1N2C1CC1 | - | - | 330 µM | 68%
O=C1C2=C(SCCS2)C(=O)N1CCCN1CCN(c2ccc(F)cc2)CC1 | - | RT activity | 200 µg/mL | 82.2%
CC(C)(C)c1ccc(CSc2nc(Cc3ccccc3)cc(=O)[nH]2)cc1 | - | ELISA | 100 µM | 0%
CN1C(=O)c2ccnnc2N(C2CC2)c2ncccc21 | - | ELISA | 330 µM | 69%
NC1C(O)OC(COS(=O)(=O)O)C(O)C1O | - | RT activity | 50 µg/mL | 32%
O=C1C2=C(SCCS2)C(=O)N1CCCCN1CCN(c2ccc(F)cc2)CC1 | - | RT activity | 200 µg/mL | 82.2%
CC(O)CCCCC[C@H]1CCCCCC[C@@H](C)NC(N)=[NH+]1.F[B-](F)(F)F | - | RT activity / radiometric | 10 µM | 0%
NOCc1c(F)cccc1Cl | - | nucleotide incorporation | 4 µg/mL | 0%
CS(=O)(=O)O.O=C(O)c1cn(-c2cccc3ccccc23)c2cc(N3CCNCC3)c(F)cc2c1=O | - | ELISA | 1 µg/mL | 40%
CC(=O)O[C@@H]([C@H](C)[C@H](O)[C@H](C)[C@@H](O)[C@@H](C)/C=C/C=C(/C)C(=O)NC1=CC(=O)c2c(c(O)c(C)c3oc(C)cc23)C1=O)[C@H](C)/C=C\C=O | - | ELISA | 300 µM | 0%
CS(=O)(=O)O.C[C@@H]1CN(c2cc3c(cc2F)c(=O)c(C(=O)O)cn3-c2ccc3ccccc3c2)C[C@H](C)N1 | - | ELISA | 1 µg/mL | 62%
CN1C(=O)c2ccnnc2N(C2CC2)c2ccccc21 | - | ELISA | 33 µM | 26%
COC(=O)C(CNCc1cn([C@H]2C[C@H](n3cc(C)c(=O)[nH]c3=O)O[C@@H]2CO)nn1)C(O)c1ccccc1OCc1ccccc1 | - | - | 10 µM | 19.4%
C[C@@H]1CCCCCC[C@H](CCCCO[Si](C)(C)C(C)(C)C)[NH+]=C(N)N1 | - | RT activity / radiometric | 40 µM | 69.6%
CCCN1c2ccc(C)cc2N(CC)C(=O)c2cc(Cl)nnc21 | - | - | 330 µM | 17%
COC(=O)/C(=C/c1cc(Br)ccc1OCc1ccccc1)CNCc1cn([C@H]2C[C@H](n3cc(C)c(=O)[nH]c3=O)O[C@@H]2CO)nn1 | - | - | 10 µM | -8.3%
COC(=O)C(C)CCC[C@H](C)[C@H](O)[C@@H](C)[C@@H](O)[C@@H](C)[C@H](O)[C@H](C)[C@H](CCO[C@@]1(C)Oc2c(C)c(O)c3c(c2C1=O)C(=O)C=C(N)C3=O)OC | - | ELISA | 300 µM | <20%

The last 3 rows once more:

smiles,strain or isolate,method,tested at,value
CCCN1c2ccc(C)cc2N(CC)C(=O)c2cc(Cl)nnc21,-,-,330 µM,17%
COC(=O)/C(=C/c1cc(Br)ccc1OCc1ccccc1)CNCc1cn([C@H]2C[C@H](n3cc(C)c(=O)[nH]c3=O)O[C@@H]2CO)nn1,-,-,10 µM,-8.3%
COC(=O)C(C)CCC[C@H](C)[C@H](O)[C@@H](C)[C@@H](O)[C@@H](C)[C@H](O)[C@H](C)[C@H](CCO[C@@]1(C)Oc2c(C)c(O)c3c(c2C1=O)C(=O)C=C(N)C3=O)OC,-,ELISA,300 µM,<20%